A mixed list of measured activities; the numbers were collected in NIAID ChemDB.

Shared fields: enzyme or target tests; species: Hepatitis C virus; protein: Nonstructural protein 5B; read-out: IC50

ICn is the concentration giving n% inhibition.

smiles | strain or isolate | read by | conditions | value
Cc1cc2c(cc1C(=O)N[C@@H](Cc1c[nH]c3ccc(OCC(=O)O)cc13)C(=O)O)nc(-c1ccoc1)n2C1CCCCC1 | - | - | - | 0.019 µM
Nc1ncnc2c1ncn2[C@@H]1O[C@H](COC(=O)c2ccc(S(=O)(=O)F)cc2)[C@@H](O)[C@H]1O | - | - | - | >1000 µM
C[C@@]1(O)[C@H](O)[C@@H](COP(=O)(O)OP(=O)(O)OP(=O)(O)O)O[C@H]1c1ccc2c(N)ncnn12 | GT3a | nucleotide incorporation | - | 0.5 µM
COc1ccc(CCC2(C3CCCC3)CC(O)=C(Sc3ccccc3)C(=O)O2)cc1Cl | - | - | - | <1 µM
O=c1ccn([C@@H]2O[C@H](CO)[C@@H]3C[C@@]32F)c(=O)[nH]1 | - | nucleotide incorporation | genotype 1b | >100 µM
CC(=O)c1ccc(CCC2(C3CCCC3)CC(O)=CC(=O)O2)cc1C | - | - | - | 1–10 µM
C[C@@]1(O)[C@H](O)[C@@H](COP(=O)(O)OP(=O)(O)OP(=O)(O)O)O[C@@]1(C#N)c1ccc2c(N)ncnn12 | 1b Con1 | radiometric | - | 0.39 µM
O=C1CC(=O)OC(CCc2ccc(F)c(F)c2)(C2CCCC2)C1 | - | - | - | 10–50 µM
CN(C)C(=O)Cn1c(-c2ccoc2)c(C2CCCCC2)c2ccc(C(=O)O)cc21 | - | - | - | 0.018 µM
CN1C(=O)[C@]23CC4=CC=C[C@H](O)[C@H]4N2C(=O)[C@@]1(CO)SS3 | - | - | - | 230 µM
O=C(Nc1ccc2cn[nH]c2c1)c1cc(NCc2ccccn2)c(F)cc1F | - | - | - | 1 µg/mL
COc1cc(OC)c(CCC2(C3CCCC3)CC(O)=C(Sc3nc4nc(C)cc(C)n4n3)C(=O)O2)cc1Cl | - | - | - | <1 µM
CCOC(=O)c1c(NC(=O)NS(=O)(=O)c2ccccn2)sc2c1CCC(C)(C)C2 | - | - | - | 0.15 µM
Nc1ncnc2c1ncn2[C@@H]1O[C@H](COC(=O)c2ccc(S(=O)(=O)F)cc2)[C@@H](O)[C@H]1O | - | - | - | >1000 µM
O=C(O)/C=C/c1ccc(NC(=O)C2(NC(=O)c3ccc4c(c3)nc(-c3ccoc3)n4C3CCCCC3)CCC2)cc1 | - | - | - | 0.055 µM
CN1CCN(c2cc(C(=O)Nc3ccc4cn[nH]c4c3)c(F)cc2F)CC1 | - | - | - | >10 µg/mL
Cn1c(COc2ccc(CCC3(C4CCCC4)CC(O)=CC(=O)O3)cc2)nc2ccccc21 | - | - | - | 10–50 µM
Nc1ncnc2c1ccn2[C@@H]1O[C@H](CO)[C@@H](O)[C@H]1O | GT1b | - | - | 0.3 µM
O=C(Nc1ccc2cn[nH]c2c1)c1cc(N2CCC(O)CC2)c(F)cc1F | - | - | - | 0.1–1 µg/mL
O=C(O)c1ccc2c(c1)nc(-c1ccoc1)n2C1CCCCC1 | - | - | - | 1.6 µM
COc1cc(OC)c(CCC2(C3CCCC3)CC(O)=C(Cl)C(=O)O2)cc1Cl | - | - | - | <1 µM
O=C(OC[C@H]1O[C@@H](n2cnc3c(=O)[nH]cnc32)[C@H](O)[C@@H]1O)c1ccc(S(=O)(=O)F)cc1 | - | - | - | 80 µM

Repeating the final 2 entries:

smiles,strain or isolate,read by,conditions,value
COc1cc(OC)c(CCC2(C3CCCC3)CC(O)=C(Cl)C(=O)O2)cc1Cl,-,-,-,<1 µM
O=C(OC[C@H]1O[C@@H](n2cnc3c(=O)[nH]cnc32)[C@H](O)[C@@H]1O)c1ccc(S(=O)(=O)F)cc1,-,-,-,80 µM

Blank or dashed fields: not listed here. Two numbers with a dash give a range or band. Conditions beyond the fields shown may differ between rows.